Patent US5686428A, “Pharmaceutical composition” (priority 1994, dated 1997)

Tests used:
[1] = system: HCMV strain Ad169; assay: HCMV plaque reduction assay in HEL cells; format: cell-based, human cytomegalovirus; conditions: CMV infected cells
Protocol: HCMV strain Ad169 was a gift from Dr. Fred Rapp, Hersey, Pa. Human embryonic lung (HEL) cells, obtained from the American Type Culture Collection, Rockville, Md., were cultured in Dulbecco modified Eagle medium as decribed previously (39). Viable cells were conducted microscopically using a hemacytometer and the trypan blue exclusion method. Plaque reduction assays were performed in confluent monolayers of HEL cells in 6-well plates (Costar, Cambridge, Mass.) with 100 to 200 pfu of HCMV Ad169. After an adsorption period of 1 hour, unadsorbed virus was removed and the monolayers were overlaid with Dulbecco modified Eagle medium containing 0.75% SeaPlaque agarose (FMC BioProducts, Rockland, Me.), 2% heat inactivated fetal calf serum, and the appropriate concentration of drug. […] The monolayers were then fixed with 10% buffered Formalin (Fisher Scientific Co, Fair Lawn, N.J.), stained with crystal violet, and the number of plaques were counted.
(§1) Calculation of synergy. […] The interaction between two compounds was determined by calculating the combination index (C.I.) with assumptions, where appropriate, of either mutually exclusive or non-exclusive interactions. When uncertainty existed as to whether the drugs acted in similar or independent manners, the determination of C.I.-values were calculated under each assumption and compared. […]

[2] = system: HIV-1 (strain LAV-1); assay: HIV-1 replication in infected human PBM cells (RT activity of disrupted virions); format: cell-based; conditions: HIV-1 infected cells
Excerpt: Cells, virus strains, and cell culture assays. PBM cells from healthy HIV-1 and hepatitis B virus seronegative donors were isolated and propagated as described previously (35). HIV-1 (strain LAV-1) was obtained from the Centers for Disease Control, Atlanta, and propagated in PHA-stimulated human PBM cells as described previously (35). The details of the methods used for infection and assaying the anti-HIV-1 effect in infected human PBM cells have been reported (35).
RT activity assay with disrupted virions. Six ml supernatant from each culture was clarified from cells at 300× g for 10 minutes. […]
The RT assays were performed at 37° C. in 96-well microtiter plates using methods described previously (35, 38). The results were expressed as dpm/ml of the originally clarified supernatant.
as §1

| Compound | m ± SE (slope of median effect plot) [1] | m ± SE (slope of median effect plot) [2] |
| --- | --- | --- |
| Cc1cn([C@H]2C[C@H](N=[N+]=[N-])[C@@H](CO)O2)c(=O)[nH]c1=O [AZT, 3'-azido-3'-deoxythymidine] | 5.95 | 3.02 ± 0.27 |
| O=C(O)P(=O)(O)O [PFA, phosphonoformic acid] | 1.88 ± 0.10 | 1.89 ± 0.17 |
